Assay results reported in PMC9095892 (The Journal of Biological Chemistry, 2022).

Legend:
CBU1838 (CbCBU1838) [1] = biological target: T1, CBU1838 (CbCBU1838) (Coxiella burnetii, UniProt Q83AP3); experiment: X-ray crystal structure of the complex; settings: nucleotide part of the active site; residues from both protomers; citrate in the sugar site
CBU1838 (CbCBU1838) [2] = biological target: T1, CBU1838 (CbCBU1838); experiment: coupled to EcRmlD, NADPH oxidation at […] nm; settings: 50 mM Hepes pH 7.5, 20 mM MgCl2, NADPH; 30 °C in methods, 37 °C in discussion

Row | SMILES | X-ray crystal structure of the complex (CBU1838 (CbCBU1838) [1]) | Km (CBU1838 (CbCBU1838) [2]) [µM]
1 | Cc1cn([C@H]2C[C@H](O)[C@@H](COP(=O)(O)OP(=O)(O)O)O2)c(=O)[nH]c1=O | The CBU1838-TDP structure showed a citrate molecule (carried over from crystallization) bound | –
2 | Cc1cn([C@H]2C[C@H](O)[C@@H](COP(=O)(O)OP(=O)(O)O[C@H]3O[C@H](C)C(=O)[C@H](O)[C@H]3O)O2)c(=O)[nH]c1=O | – | 2000
